Laboratory results from US20090305399A1.

Target: human Kv1.3 channel (human) (UniProt P22001)
Experiment: cell-based or functional assay

Q: How did the fold change in Kv1.3 potency against Fc-L10-OSK1 turn out when Fc-L10-OSK1[K7S] (Fc fusion) was run?
A: 2 fold
